Compound potency records, mixed from different reports. Data source: NIAID ChemDB in PubChem.

Common to all: growth or infection tests; organism: Pneumocystis carinii

ECn: concentration that inhibits the pathogen or its effect by n%. An empty or dashed field is not shown. Lines come from different laboratories, so protocols vary. Inhibition is in % at the dose shown (toxicity tests: loss of growth or viability).

smiles | method | setting | endpoint | tested at | cells | value
CCCCCCN=C(N)c1ccc(N2CCN(c3ccc(C(N)=NCCCCCC)cc3)CC2)cc1 | ATP | - | EC50 | - | - | 0.004 µg/mL
CCc1c(O)c(=O)ccn1CC | - | 7 d | inhibition | 72 µM | Human fibroblasts | 85%
c1ccc(CNCCCNCCCCCCCNCCCNCc2ccccc2)cc1 | - | - | inhibition | 30 µM | - | 77%
NNC(=O)c1ccc(N2CCN(c3ccc(C(=O)NN)cc3)CC2)cc1 | ATP | - | EC50 | - | - | 6.48 µg/mL
O=c1[nH]cnc2c1ncn2[C@@H]1O[C@H](CO)[C@@H](O)[C@H]1O | - | - | inhibition | 1000 µM | - | 0%
CCC(C)CN=C(N)c1ccc(N2CCN(c3ccc(C(N)=NCC(C)CC)cc3)CC2)cc1.Cl.Cl | ATP | - | EC50 | - | A549 | 0.001 µg/mL
N=C(N)c1ccc(N2CCN(c3ccccc3)CC2)cc1 | - | - | inhibition | 50 µg/mL | - | 87%
NC(N)=NC(=O)c1nc(Cl)c(N)nc1N | - | - | inhibition | 100 µM | - | 8%
N=C(N)c1ccc(OCCCCCOc2ccc(C(=N)N)cc2)cc1 | - | - | inhibition | 0.1 µg/mL | - | 78%
CC(=O)N(O)CCCCCNC(=O)CCC(=O)N(O)CCCCCNC(=O)CCC(=O)N(O)CCCCCN.[Ca] | - | 7 d | inhibition | 30 µM | Human fibroblasts | 95%
CCCCCN=C(N)c1ccc(N2CCN(c3ccccc3)CC2)cc1 | - | - | inhibition | 10 µg/mL | - | 94%
N=C(N)c1ccc(NC(=O)CCCCC(=O)Nc2ccc(C(=N)N)cc2)cc1 | ATP | - | EC50 | - | A549 | 0.001 µg/mL
NC(=NCC1CC1)c1ccc(N2CCCN(c3ccc(C(N)=NCC4CC4)cc3)CC2)cc1 | - | - | inhibition | 1 µM | - | 67%
NC(=NC1CCCCCC1)c1ccc(N2CCN(c3ccc(C(N)=NC4CCCCCC4)cc3)CC2)cc1 | ATP | - | EC50 | - | - | 0.069 µg/mL
O=C1C(=O)c2ccccc2C(O)=C1C1CCC(c2ccc(Cl)cc2)CC1 | - | - | MIC | - | - | 1 µg/mL
CC(C)N=C(N)c1ccc(N2CCN(c3ccccc3)CC2)cc1 | - | - | inhibition | 50 µg/mL | - | 88%
CCCCCN=C(N)c1ccc(N2CCCN(c3ccc(C(N)=NCCCCC)cc3)CC2)cc1 | - | - | inhibition | 1 µM | - | 42%
Cc1c(O)c(=O)ccn1C | - | 7 d | inhibition | 18 µM | Human fibroblasts | 43%
CCCCCN=C(N)c1ccc(N2CCN(c3ccc(C(N)=NCCCCC)cc3)CC2)cc1 | ATP | - | EC50 | - | - | 0.001 µg/mL
N=C(N)c1ccc(N2CCCN(c3ccc(C(=N)N)cc3)CC2)cc1 | - | - | inhibition | 1 µM | - | 100%
O=Cc1ccc(N2CCN(c3ccc(C=O)cc3)CC2)cc1 | ATP | - | EC50 | - | - | >100 µg/mL
CC(C)CCN=C(N)c1ccc(N2CCN(c3ccccc3)CC2)cc1 | - | - | inhibition | 10 µg/mL | - | 91%

The last 2 rows once more:

O=Cc1ccc(N2CCN(c3ccc(C=O)cc3)CC2)cc1 ; method: ATP ; endpoint: EC50 ; value: >100 µg/mL
CC(C)CCN=C(N)c1ccc(N2CCN(c3ccccc3)CC2)cc1 ; endpoint: inhibition ; tested at: 10 µg/mL ; value: 91%